Results of unrelated studies side by side (data: NIAID ChemDB).

Common to all: target-level tests

Two numbers with a dash give a range or band. ICn is the concentration giving n% inhibition. Inhibition is in % at the dose shown (toxicity tests: loss of growth or viability). Blank or dashed fields: not listed here. Fold resistance has wild type as its base. Neighbouring rows are from separate reports.

structure	protein	measure	mutations	strain	method	species	tested at	result
O=c1[nH]c(=O)[nH]c(=O)[nH]1	Uracil phosphoribosyltransferase	IC50	-	RH	-	Toxoplasma gondii	-	>2000 µM
Cn1ccnc1/C=C1/SC(=S)N(NS(=O)(=O)c2ccccc2)C1=O	NS5B polymerase	IC50	-	-	-	Hepatitis C virus	-	≤30 µM
O=C(O)CP(=O)(O)O	DNA polymerase	IC50	-	-	-	Epstein-Barr virus	-	1.6 µM
CC1(C)N=C(N)N=C(N)N1c1cccc(CCCCOc2ccccc2)c1	DHFR	IC50	-	RH	-	Toxoplasma gondii	-	0.0046 µM
O=C1/C(=C\c2ccc(Cl)c(Cl)c2)SC(=S)N1NS(=O)(=O)c1ccccc1F	NS5B polymerase	IC50	-	-	-	Hepatitis C virus	-	≤30 µM
CC1(C)N=C(N)N=C(N)N1c1ccc(CCc2ccccc2)cc1	DHFR	IC50	-	RH	-	Toxoplasma gondii	-	0.012 µM
CO[P@](=O)(c1cc(C)cc(/C=C/C#N)c1)c1c(C(N)=O)[nH]c2ccc(Cl)c(F)c12	Reverse transcriptase	IC50	M184V	-	-	HIV	-	0.29 µM
O=C1/C(=C\c2ccc(Br)c(Br)c2)SC(=S)N1NS(=O)(=O)c1ccc(F)cc1	NS5B polymerase	IC50	-	-	-	Hepatitis C virus	-	≤30 µM
O=c1[nH]cccc1O	Uracil phosphoribosyltransferase	inhibition	-	RH	-	Toxoplasma gondii	2000 µM	<5%
CN(Cc1cnc2nc(N)nc(N)c2n1)c1c(Cl)cc(C(=O)N[C@@H](CCC(=O)O)C(=O)O)cc1Cl	DHFR	IC50	-	RH	-	Toxoplasma gondii	-	0.00123 µM
O=C(O)C(Cl)(Br)P(=O)(O)O	DNA polymerase	inhibition	-	-	-	Herpes simplex virus 2	100 µM	0%
O=C(/C=C/c1ccccc1Cl)Nc1nnc(NCC(c2ccccc2)c2ccccc2)s1	Polymerase	IC50	-	-	-	Human cytomegalovirus	-	<25 µM
CC1(C)OCC(N(C(=O)c2ccc(Cl)cc2Cl)c2cc(-c3ccccc3)sc2C(=O)O)CO1	NS3 ATPase	IC50	-	-	-	Hepatitis C virus	-	<5 µM
O=C(/C=C/c1ccccc1)Nc1nnc(NCCCn2ccnc2)s1	Polymerase	IC50	-	-	-	Human cytomegalovirus	-	<25 µM
CC(C)=CCOc1cc(NC(=S)c2ccoc2C)ccc1Cl	Reverse transcriptase	IC50	RT-P95A	-	nucleotide incorporation / radiometric	HIV	-	0.014 µM
CCOc1ccc2ccccc2c1C(=O)Nc1nnc(NCCNC(C)=O)s1	Polymerase	IC50	-	-	-	Human cytomegalovirus	-	>25 µM
Nc1ccnc(=O)[nH]1	Uracil phosphoribosyltransferase	IC50	-	RH	-	Toxoplasma gondii	-	>2000 µM
O=P(O)(O)C(Cl)(Cl)P(=O)(O)O	DNA polymerase	IC50	-	-	-	Herpes simplex virus 1	-	>100 µM
CCc1cnccn1	Uracil phosphoribosyltransferase	IC50	-	RH	-	Toxoplasma gondii	-	>2000 µM
O=C(O)C(Br)P(=O)(O)O	DNA polymerase	IC50	-	-	-	Epstein-Barr virus	-	25 µM
C=CCN(C(=O)OCc1ccc([N+](=O)[O-])cc1)C1CCN(CC[C@](C)(CN(C)S(=O)(=O)c2ccccc2)c2ccccc2)CC1	CCR5	fold resistance	CCR5-D276A	-	radiometric	-	-	2.35
CN(C(=O)c1ccccc1)c1cc(-c2ccccc2)sc1C(=O)O	NS3 ATPase	IC50	-	-	-	Hepatitis C virus	-	>20 µM
Cc1cn([C@@H]2O[C@H](CO[Si](C)(C)C(C)(C)C)[C@@]3(OS(=O)(=O)C=C3N)[C@H]2O[Si](C)(C)C(C)(C)C)c(=O)[nH]c1=O	Reverse transcriptase	IC50	RT-N137T	-	nucleotide incorporation / radiometric	HIV	-	0.7 µM
O=c1ccn(Cc2ccccc2)c(=O)[nH]1	Uracil phosphoribosyltransferase	IC50	-	RH	-	Toxoplasma gondii	-	>2000 µM
CC(Cl)(C(=O)O)P(=O)(O)O	DNA polymerase	IC50	-	-	-	Epstein-Barr virus	-	>100 µM
CCc1c[nH]c(=S)[nH]c1=O	Uracil phosphoribosyltransferase	IC50	-	RH	-	Toxoplasma gondii	-	>2000 µM
CN(CC(C)(CCN1CCC(N(CCO)C(=O)OCc2ccc([N+](=O)[O-])cc2)CC1)c1ccsc1)S(=O)(=O)c1ccccc1	CCR5	fold resistance	CCR5-E283A	-	radiometric	-	-	>5000
O=P(O)(O)C(Br)(Br)P(=O)(O)O	DNA polymerase	IC50	-	-	-	Epstein-Barr virus	-	>100 µM
Cc1c(Sc2ccccc2)n(COCCO)c(=O)[nH]c1=O	Reverse transcriptase	IC50	RT-K103N Y181I	-	-	HIV	-	>5 µM
O=P(O)(O)C(F)(F)P(=O)(O)O	DNA polymerase	IC50	-	-	-	Epstein-Barr virus	-	>100 µM
Cc1ccccc1S(=O)(=O)Nc1cc(-c2ccc(F)c(F)c2)sc1C(=O)O	NS3 ATPase	IC50	-	-	-	Hepatitis C virus	-	<5 µM
Cc1cn([C@@H]2O[C@H](CO[Si](C)(C)C(C)(C)C)C3(OS(=O)(=O)C=C3N)[C@H]2O[Si](C)(C)C(C)(C)C)c(=O)n(C)c1=O	Reverse transcriptase	IC50	RT-N137K	-	nucleotide incorporation / radiometric	HIV	-	3.3 µM
O=C1/C(=C\c2ccc(Cl)c(Cl)c2)SC(=S)N1NS(=O)(=O)c1ccccc1	NS5B polymerase	IC50	-	-	-	Hepatitis C virus	-	≤30 µM
CC1(C)N=C(N)N=C(N)N1c1cccc(OCCCOc2cccc(NC(=O)CBr)c2)c1	DHFR	IC50	-	RH	-	Toxoplasma gondii	-	0.45 µM
O=C(O)C(Cl)(Cl)P(=O)(O)O	DNA polymerase	IC50	-	-	-	Herpes simplex virus 1	-	>100 µM
CCCC(=O)N(CC)c1cc(-c2ccccc2)sc1C(=O)O	NS3 ATPase	IC50	-	-	-	Hepatitis C virus	-	5–20 µM
c1ncncn1	Uracil phosphoribosyltransferase	IC50	-	RH	-	Toxoplasma gondii	-	>2000 µM
Cc1ccccc1S(=O)(=O)Nc1cc(C#C[Si](C)(C)C)sc1C(=O)O	NS3 ATPase	IC50	-	-	-	Hepatitis C virus	-	<5 µM
O=C1/C(=C\c2ccc(Cl)c(Cl)c2)SC(=S)N1NS(=O)(=O)c1ccc(F)cc1	NS5B polymerase	IC50	-	-	-	Hepatitis C virus	-	≤30 µM
CC(C)N(C(=O)c1ccc(Cl)cc1Cl)c1cc(-c2cccc(C(F)(F)F)c2)sc1C(=O)O	NS3 ATPase	IC50	-	-	-	Hepatitis C virus	-	<5 µM
CCCCCCCCCCCNc1nnc(NC(=O)c2cccc([N+](=O)[O-])c2)s1	Polymerase	IC50	-	-	-	Human cytomegalovirus	-	<25 µM
CCCC1CCC(C(=O)N(c2cc(-c3ccccc3)sc2C(=O)O)C(C)C)CC1	NS3 ATPase	IC50	-	-	-	Hepatitis C virus	-	<5 µM
O=C(c1ccccc1)N1C[C@H](CN2CCC(c3ccccc3)CC2)[C@@H](c2ccccc2)C1	CCR5	IC50	CCR5-Y108A	-	radiometric	-	-	0.165 µM

Again, the opening 2 rows:

| structure | protein | measure | mutations | strain | method | species | tested at | result |
|---|---|---|---|---|---|---|---|---|
| O=c1[nH]c(=O)[nH]c(=O)[nH]1 | Uracil phosphoribosyltransferase | IC50 | - | RH | - | Toxoplasma gondii | - | >2000 µM |
| Cn1ccnc1/C=C1/SC(=S)N(NS(=O)(=O)c2ccccc2)C1=O | NS5B polymerase | IC50 | - | - | - | Hepatitis C virus | - | ≤30 µM |